Measured values from several laboratories, pooled; numbers as filed in NIAID ChemDB.

Common to all: whole-cell or culture tests; organism: Mycobacterium smegmatis; endpoint: MIC

Lines come from different laboratories, so protocols vary. An empty or dashed field is not shown.

smiles,strain or isolate,mutations,read by,result
C[C@@H]1CN(c2nc3c(cc2F)c(=O)c(C(=O)O)cn3C(C)(C)C)C[C@H](C)N1,ATCC 19420,-,-,0.13 µg/mL
Cc1ccc(-c2nc(-c3sc(-c4ccccc4)nc3C)cs2)cc1,-,-,absorbance,91.15 µM
Cc1ccc(Nc2cc(=O)n3c(-c4ccc([N+](=O)[O-])cc4)csc3n2)cc1,-,-,broth dilution / visual reading,>800 µg/mL
NC1CCN(c2c(F)cc3c(=O)c(C(=O)O)cn(C4CC4)c3c2C(F)(F)F)C1,ATCC 19420,-,-,0.25 µg/mL
CC(C)(C)c1cnc(C(=O)/C=C/c2ccccc2F)cn1,CCM,-,absorbance,>500 µg/mL
O=C1c2cccnc2-c2nccc3c2c1nc1cc(Br)ccc13,mc2155,-,-,3.125 µM
Cc1c(N2CC(N)C2)c(F)cn2c(=O)c(C(=O)O)cc(C3CC3)c12.Cl,ATCC114,-,-,0.78 µg/mL
CCC(CO)NCCNC(C)C,ATCC 607,-,-,15 µg/mL
CC[C@@H](C(=O)[C@@H](C)[C@@H](O)[C@H](C)[C@@H]1O[C@@H]([C@@H](CC)C(=O)O)CC[C@@H]1C)[C@H]1O[C@@]2(C=C[C@@H](O)[C@@]3(CC[C@@](C)([C@H]4CC[C@](O)(CC)[C@H](C)O4)O3)O2)[C@H](C)C[C@@H]1C,mc2155,C20 insertion,resazurin,2.5 µg/mL
COc1ccc(-c2nn(-c3ccccc3)cc2/C=C/c2nc3sccn3c(=O)c2-c2ccc(C#N)cc2)cc1,mc2155,-,colony count,78 µg/mL
Cc1nc(-c2ccc(F)cc2)sc1-c1csc(-c2ccc(F)cc2)n1,-,-,absorbance,48.22 µM
CNc1ccc2oc(C[C@@H]3OC4(CC[C@@H]3C)O[C@H](C(C)C(=O)c3ccc[nH]3)[C@H](C)C[C@H]4C)nc2c1C(=O)O,mc2155,-,resazurin,0.31 µg/mL
CC(C)(C)n1cc(C(=O)O)c(=O)c2cc(F)c(N3CCC(N)C3)nc21,ATCC 19420,-,-,≤0.03 µg/mL
CN(C)[C@@H]1C(=O)C(C(N)=O)=C(O)[C@@]2(O)C(=O)C3=C(O)c4c(O)cccc4[C@@](C)(O)[C@H]3C[C@@H]12,PSB51 LFR,-,-,1 µg/mL
CCC(CO)N(C)CCN(C)C(CC)CO,ATCC 607,-,-,>250 µg/mL
Cc1c(N2CC[C@H]([C@@H](C)N)C2)c(F)cn2c(=O)c(C(=O)O)cc(C3CC3)c12.Cl,ATCC114,-,-,0.2 µg/mL
CCCCCc1cnc(C(=O)/C=C/c2ccc(Br)cc2)cn1,CCM,-,absorbance,>250 µg/mL
CCC(CO)NCC(C)NC(CC)CO,ATCC 607,-,-,250 µg/mL
CC(C)(C)n1cc(C(=O)O)c(=O)c2cc(F)c(N3CCNCC3)nc21,ATCC 19420,-,-,0.13 µg/mL
CC(C)c1cnc(C(=O)/C=C/c2ccccc2Br)cn1,CCM,-,absorbance,15.6 µg/mL
OC(c1cc(C23CC4CC(CC(C4)C2)C3)nc2c(Cl)cc(Cl)cc12)C1CCCCN1,mc2155,-,-,25 µM
CCCCc1cnc(C(=O)/C=C/c2ccccc2Br)cn1,CCM,-,absorbance,15.6 µg/mL
CC[C@H](CO)NCCN[C@@H](CC)CO.Cl.Cl,ATCC 607,-,-,8 µg/mL
CCOc1c(N2CC(C)NC(C)C2)c(F)cc2c(=O)c(C(=O)O)cn(C3CC3)c12,ATCC 19420,-,-,0.13 µg/mL
Cc1c(N2CC(CN(C)C)CC3CCCC32)c(F)cn2c(=O)c(C(=O)O)cc(C3CC3)c12.Cl,ATCC114,-,-,3.1 µg/mL
Cc1ccc(-c2ccc(Cl)cc2)n1C1CCCCC1,103599,-,-,>16 µg/mL
Cc1nc(-c2ccccc2)sc1-c1csc(-c2ccc(F)cc2)n1,-,-,absorbance,62.51 µM
CCn1cc(C(=O)O)c(=O)c2cc(F)c(N3CCC(N)C3)nc21,ATCC 19420,-,-,1 µg/mL
O=C(/C=C/c1ccccc1Br)c1cnccn1,CCM,-,absorbance,15.6 µg/mL
Nc1nc(Cl)nc2c1ncn2[C@@H]1O[C@H](CO)[C@@H](O)[C@H]1O,mc2155,-,-,>100 µM
CC(C)c1cnc(C(=O)/C=C/c2ccc(Cl)cc2)cn1,CCM,-,absorbance,>125 µg/mL
Cc1c(N2CCCC(n3cccc3)C2)c(F)cn2c(=O)c(C(=O)O)cc(C3CC3)c12,ATCC114,-,-,6.2 µg/mL
Nc1cccc(-c2csc3nc(Nc4ccc(S(=O)(=O)O)cc4)cc(=O)n23)c1,-,-,broth dilution / visual reading,100 µg/mL
CSCC[C@H](N)[C@@H]1CCN(c2c(F)cn3c(=O)c(C(=O)O)cc(C4CC4)c3c2C)C1,ATCC114,-,-,0.1 µg/mL
CCCCCCn1c(C)c(CN2CCN(C)CC2)c(CN2CCN(C)CC2)c1-c1ccc(Cl)cc1,103599,-,-,>64 µg/mL
CC(C)(C)c1cnc(C(=O)/C=C/c2ccccc2Br)cn1,CCM,-,absorbance,62.5 µg/mL
Oc1ccccc1NCCNc1ccccc1O,ATCC 607,-,-,125 µg/mL
O=c1cc(Nc2ccc(S(=O)(=O)O)cc2)nc2scc(-c3ccc([N+](=O)[O-])cc3)n12,-,-,broth dilution / visual reading,>800 µg/mL
CN(/N=C/c1ccccc1O)c1ccc2ccccc2n1,mc2155,-,-,>100 µM
COCOC1CCN(c2c(F)cn3c(=O)c(C(=O)O)cc(C4CC4)c3c2C)CC1,ATCC114,-,-,0.78 µg/mL
COC(=O)[C@@H]1[C@H](O)[C@H](C)C(O)[C@H](C)/C=C\C=C(/C)C(=O)Nc2c(C)c(OC(C)=O)c3c(c2O)C(=O)C(C)=C2OCOC(=C23)/C(C)=C/[C@@](C)(O)[C@H](O)[C@@H](C)[C@H]1OC(C)=O,mc2155,-,-,12.5 µM
CC1CN(c2c(F)cc3c(=O)c(C(=O)O)cn(C4CC4)c3c2C(F)(F)F)CC(C)N1,ATCC 19420,-,-,1 µg/mL
COc1ccc(Nc2cc(=O)n3c(-c4ccc(N)cc4)csc3n2)cc1S(=O)(=O)O,-,-,broth dilution / visual reading,50 µg/mL
Cc1cccc(-c2nn(-c3ccccc3)cc2/C=C/c2nc3sccn3c(=O)c2-c2ccc(C#N)cc2)c1,mc2155,-,colony count,9 µg/mL
Cc1nc(-c2ccccc2)sc1-c1csc(Cc2ccc(F)cc2)n1,-,-,absorbance,>100 µM
Cc1cc(N)c2ccccc2[n+]1CCCCCCCCCC[n+]1c(C)cc(N)c2ccccc21,mc2155,-,-,3.125 µM
C[C@H]1c2cccc(O)c2C(O)=C2C(=O)[C@]3(O)C(O)=C(C(N)=O)C(=O)[C@@H](N(C)C)[C@@H]3[C@@H](O)[C@@H]21,A24185,-,-,0.06 µg/mL
CC[C@H](NC)[C@@H]1CCN(c2c(F)cn3c(=O)c(C(=O)O)cc(C4CC4)c3c2C)C1.Cl,ATCC114,-,-,0.01 µg/mL
O=c1c(-c2ccc(C(F)(F)F)cc2)c(/C=C/c2cn(-c3ccccc3)nc2-c2cccc(Br)c2)nc2sccn12,mc2155,-,colony count,57 µg/mL
CCCCCCCCCCCCCCCC[N+](C)(C)CC,PMN1 LFR,-,-,16 µg/mL
CCC[C@@H](CO)NCCN[C@@H](CO)CCC,ATCC 607,-,-,60 µg/mL
COc1c(N2CCNCC2)c(F)cc2c(=O)c(C(=O)O)cn(-c3ccc(F)cc3F)c12,ATCC 19420,-,-,2 µg/mL
Cc1c(CN2CCOCC2)cc(-c2ccc(Cl)cc2)n1C1CCCCC1,103599,-,-,>64 µg/mL
CO[C@H]1/C=C/O[C@@]2(C)Oc3c(C)c(O)c4c(O)c(c(/C=N/N5CCN(C)CC5)c(O)c4c3C2=O)NC(=O)/C(C)=C\C=C\[C@H](C)[C@H](O)[C@@H](C)[C@@H](O)[C@@H](C)[C@H](OC(C)=O)[C@@H]1C,-,-,broth dilution / visual reading,25 µg/mL
CC1CN(c2c(F)cc3c(=O)c(C(=O)O)cn(C4CC4)c3c2F)CCN1,ATCC 19420,-,-,0.25 µg/mL
Cc1c(CN2CCOCC2)c(CN2CCOCC2)c(-c2ccc(Cl)cc2)n1Cc1ccccc1,103599,-,-,>64 µg/mL
N#Cc1ccc(-c2c(/C=C/c3cn(-c4ccccc4)nc3-c3ccc(Br)cc3)nc3sccn3c2=O)cc1,mc2155,-,colony count,74 µg/mL
Cc1nc(-c2ccc(F)cc2)sc1-c1csc(Cc2ccccc2)n1,-,-,absorbance,>100 µM
COc1ccc(-c2nn(-c3ccccc3)cc2/C=C/c2nc3sccn3c(=O)c2-c2ccc(C(F)(F)F)cc2)cc1,mc2155,-,colony count,62 µg/mL
Cc1ccc(-c2nc(C)c(-c3csc(Cc4ccc(F)cc4)n3)s2)cc1,-,-,absorbance,96.32 µM

For reference, 5 entries again:

| smiles | strain or isolate | mutations | read by | result |
|---|---|---|---|---|
| O=c1cc(Nc2ccc(S(=O)(=O)O)cc2)nc2scc(-c3ccc([N+](=O)[O-])cc3)n12 | - | - | broth dilution / visual reading | >800 µg/mL |
| CCC(CO)N(C)CCN(C)C(CC)CO | ATCC 607 | - | - | >250 µg/mL |
| CCCCCCn1c(C)c(CN2CCN(C)CC2)c(CN2CCN(C)CC2)c1-c1ccc(Cl)cc1 | 103599 | - | - | >64 µg/mL |
| COc1ccc(Nc2cc(=O)n3c(-c4ccc(N)cc4)csc3n2)cc1S(=O)(=O)O | - | - | broth dilution / visual reading | 50 µg/mL |
| COc1ccc(-c2nn(-c3ccccc3)cc2/C=C/c2nc3sccn3c(=O)c2-c2ccc(C#N)cc2)cc1 | mc2155 | - | colony count | 78 µg/mL |